Read-outs that look alike come from different tables or passages of the source. Peptide text beside a SMILES is read from it. * marks the point of attachment. Galloyl = O=C(c1cc(O)c(O)c(O)c1)*; X1 = CN(C)c1ccc(C(=O)*)cc1
Tests used:
CHIKV-NLuc [1] = type: cell-based, Chikungunya virus; conditions: Huh-7 cells, ratio CC50/EC50
CHIKV-NLuc [2] = type: cell-based, Chikungunya virus; conditions: BHK-21 cells, ratio CC50/EC50

## CC(C)C[C@H](NC(=O)[C@H](C)NC(=O)[C@H](CCCCN)NC(=O)[C@H](CCCCN)NC(=O)[C@H](CC(C)C)NC(=O)[C@H](C)NC(=O)[C@H](CCCCN)NC(=O)[C@H](CCCCN)NC(=O)[C@H](CC(C)C)NC(=O)[C@H](CCCCN)NC(=O)[C@H](CCCCN)NC(=O)[C@H](CC(C)C)NC(=O)[C@H](C)NC(=O)[C@H](CCCCN)NC(=O)[C@H](CCCCN)NC(=O)[C@H](CC(C)C)NC(=O)[C@H](C)NC(=O)[C@H](CCCCN)NC(=O)[C@H](CC(C)C)NC(=O)[C@H](C)NC(=O)[C@H](CC(C)C)NC(=O)[C@H](C)NC(=O)[C@H](Cc1ccccc1)NC(=O)c1ccc(N(C)C)cc1)C(N)=O [PSSct1910] (X1-FALALKALKKALKKLKKALKKAL-NH2)
CHIKV-NLuc [1]
  SI (selectivity index): 38.5
CHIKV-NLuc [2]
  SI (selectivity index): 4.9

## CC(C)C[C@H](NC(=O)[C@H](CCCCN)NC(=O)[C@H](CCCCN)NC(=O)[C@H](CC(C)C)NC(=O)[C@H](C)NC(=O)[C@H](CCCCN)NC(=O)[C@H](CCCCN)NC(=O)[C@H](CC(C)C)NC(=O)[C@H](C)NC(=O)[C@H](CCCCN)NC(=O)[C@H](CC(C)C)NC(=O)[C@H](C)NC(=O)[C@H](CC(C)C)NC(=O)[C@H](C)NC(=O)[C@H](Cc1ccccc1)NC(=O)c1cc(O)c(O)c(O)c1)C(=O)O [PSSct1905, GA-FALALKALKKALKKL-COOH] (Galloyl-FALALKALKKALKKL-OH)
CHIKV-NLuc [1]
  SI (selectivity index): 28.9
CHIKV-NLuc [2]
  SI (selectivity index): 6.7

## CC(C)C[C@H](NC(=O)[C@H](C)NC(=O)[C@H](CCCCN)NC(=O)[C@H](CCCCN)NC(=O)[C@H](CC(C)C)NC(=O)[C@H](C)NC(=O)[C@H](CCCCN)NC(=O)[C@H](CCCCN)NC(=O)[C@H](CC(C)C)NC(=O)[C@H](CCCCN)NC(=O)[C@H](CCCCN)NC(=O)[C@H](CC(C)C)NC(=O)[C@H](C)NC(=O)[C@H](CCCCN)NC(=O)[C@H](CCCCN)NC(=O)[C@H](CC(C)C)NC(=O)[C@H](C)NC(=O)[C@H](CCCCN)NC(=O)[C@H](CC(C)C)NC(=O)[C@H](C)NC(=O)[C@H](CC(C)C)NC(=O)[C@H](C)NC(=O)[C@H](Cc1ccccc1)NC(=O)c1cc(O)c(O)c(O)c1)C(N)=O [GA-Hecate] (Galloyl-FALALKALKKALKKLKKALKKAL-NH2)
CHIKV-NLuc [1]
  SI (selectivity index): 49.1
CHIKV-NLuc [2]
  SI (selectivity index): 4.1

Source: paper PMC10610090, “The Synthetic Peptide GA-Hecate and Its Analogs Inhibit Multiple Steps of the Chikungunya Virus Infection Cycle In Vitro” (Pharmaceuticals, 2023)
